Results of unrelated studies side by side (data: NIAID ChemDB).

All rows: growth or infection tests; organism: HIV-2; measure: EC50

Two numbers with a dash give a range or band.

Cc1nc(CCCCCCC(=O)c2ccccc2)n2nc(NCCCCCCCCCCN)ccc12 ; cell line: PBMC ; strain or isolate: D194 ; method: RT activity ; result: >10 µM
CCCCCCCCCCCCCC(=O)Oc1ccc(COP(=O)(OCc2ccc(OC(=O)CCCCCCCCCCCCC)cc2)OP(=O)(O)OC[C@@H]2C=C[C@H](n3cc(C)c(=O)[nH]c3=O)O2)cc1 ; cell line: CEM/TK- ; strain or isolate: ROD ; method: syncytia / microscopy ; result: 1.2 µM
O=C(NCCc1ccccc1)Nc1nc(C(F)(F)F)cs1 ; cell line: MT-4 ; method: cytopathic effect / XTT ; result: <1 µg/mL
C#CCO[C@]12CS(=O)(=O)O[C@@]13[C@@H](CN2)O[C@@H](n1cc(C)c(=O)[nH]c1=O)[C@@H]3O[Si](C)(C)C(C)(C)C ; cell line: MT-4 ; strain or isolate: ROD ; result: >25 µM
Cc1cn([C@H]2C[C@H](N=[N+]=[N-])[C@@H](CO)O2)c(=O)[nH]c1=O ; cell line: MT-4 ; strain or isolate: ROD ; method: MTT / absorbance ; result: 0.0082 µM
Cc1cn([C@@H]2O[C@@H]3CN[C@H]4CS(=O)(=O)O[C@]43[C@H]2O[Si](C)(C)C(C)(C)C)c(=O)[nH]c1=O ; cell line: CEM ; strain or isolate: ROD ; result: >125 µM
CCCCCCCCCCCCCCCC(=O)Oc1ccc(OP(=O)(OCc2ccc(OC(=O)CCCC)cc2)OP(=O)(O)OP(=O)(O)OC[C@@H]2C=C[C@H](n3cc(C)c(=O)[nH]c3=O)O2)cc1 ; cell line: CEM ; strain or isolate: ROD ; method: syncytia / visual reading ; result: 0.27 µM
Cc1nc(CCCCCCC(=O)c2ccccc2)n2nc(NCCCCCCCCCCCCNCc3cn([C@H]4C=C[C@@H](CO)O4)c(=O)[nH]c3=O)ccc12 ; cell line: PBMC ; strain or isolate: D194 ; method: RT activity ; result: 0.16 µM
CCCCCCC(=O)Oc1ccc(COP(=O)(OCc2ccc(OC(=O)CCCCCC)cc2)OP(=O)(O)OC[C@@H]2C=C[C@H](n3cc(C)c(=O)[nH]c3=O)O2)cc1 ; cell line: CEM ; strain or isolate: ROD ; method: syncytia / microscopy ; result: 1.1 µM
CCCCCCCCCCCCCCCCCC(=O)Oc1ccc(OP(=O)(OCc2ccc(OC(=O)CCCC)cc2)OP(=O)(O)OP(=O)(O)OC[C@@H]2C=C[C@H](n3cc(C)c(=O)[nH]c3=O)O2)cc1 ; cell line: CEM ; strain or isolate: ROD ; method: syncytia / visual reading ; result: 0.1 µM
CCCOC(=O)[C@H](Cc1ccccc1)NP(=O)(CO[C@H]1CO[C@@H](n2cc(C)c(N)nc2=O)C1)N[C@@H](Cc1ccccc1)C(=O)OCCC ; cell line: MT-4 ; strain or isolate: ROD ; method: MTT / absorbance ; result: 16.7 µM
Cc1nc(CCCCCCC(=O)c2ccccc2)n2nc(NCCCCCCCCNCc3cn([C@H]4C=C[C@@H](CO)O4)c(=O)[nH]c3=O)ccc12 ; cell line: PBMC ; strain or isolate: D194 ; method: RT activity ; result: 0.22 µM
Cn1cc(NC(=O)Nc2cc(C(=O)Nc3cc(C(=O)Nc4cc(S(=O)(=O)O)c5cc(S(=O)(=O)O)cc(S(=O)(=O)O)c5c4)n(C)c3)n(C)c2)cc1C(=O)Nc1cc(C(=O)Nc2cc(S(=O)(=O)O)c3cc(S(=O)(=O)O)cc(S(=O)(=O)O)c3c2)n(C)c1 ; cell line: CEM + CEM-SS ; strain or isolate: ROD ; method: cytopathic effect / XTT ; result: 4.2 µM
O=C(O)c1ccc2nc(-c3c(F)cccc3F)n(Cc3c(F)cccc3F)c2c1 ; cell line: MT-4 ; strain or isolate: ROD ; method: RT activity ; result: >117 µM
Cc1nc(CCCCCCC(=O)c2ccccc2)n2nc(NCCCCCCCCCCNCc3cn([C@H]4C=C[C@@H](CO)O4)c(=O)[nH]c3=O)ccc12 ; cell line: PBMC ; strain or isolate: D194 ; method: RT activity ; result: 0.31 µM
C=CCO[C@]12CS(=O)(=O)O[C@@]13[C@@H](CN2)O[C@@H](n1cc(C)c(=O)[nH]c1=O)[C@@H]3O[Si](C)(C)C(C)(C)C ; cell line: CEM ; strain or isolate: ROD ; result: >50 µM
Nc1nc2c(ccn2[C@H]2C=C[C@@H](CO)C2)c(=O)[nH]1 ; cell line: PBMC ; strain or isolate: D205 ; method: RT activity ; result: 9 µM
Cc1cn([C@@H]2O[C@@H]3CN[C@@]4(OCCO)CS(=O)(=O)O[C@@]34[C@H]2O[Si](C)(C)C(C)(C)C)c(=O)[nH]c1=O ; cell line: MT-4 ; strain or isolate: ROD ; result: >25 µM
COc1cc(-c2ccc(N=Nc3ccc4c(S(=O)(=O)O)cc(S(=O)(=O)O)c(N)c4c3O)c(OC)c2)ccc1N=Nc1ccc2c(S(=O)(=O)O)cc(S(=O)(=O)O)c(N)c2c1O ; cell line: CEM + CEM-SS ; strain or isolate: ROD ; method: cytopathic effect / XTT ; result: 1.8 µM
Cc1cn(C2CC(N=[N+]=[N-])C(COC(C(=O)O)P(=O)(O)OP(=O)(O)OP(=O)(O)O)O2)c(=O)[nH]c1=O ; cell line: CEM ; strain or isolate: ROD ; method: cytopathic effect / syncytia ; result: >100 µg/mL
O=C(OC1[C@H](OC(=O)c2cc(O)c(O)c(O)c2)CC(OC(=O)c2cc(O)c(O)c(O)c2)(C(=O)O)C[C@H]1OC(=O)c1cc(O)c(O)c(O)c1)c1cc(O)c(O)c(O)c1 ; cell line: CEM + CEM-SS ; strain or isolate: ROD ; method: XTT ; result: ~10 µM
O=c1[nH]cnc2ncc(-c3cccs3)nc12 ; cell line: MT-4 ; strain or isolate: ROD ; method: cytopathic effect / MTT / absorbance ; result: >48.22 µM
Fc1cccc(F)c1Cn1c(-c2c(F)cccc2F)nc2ccccc21 ; cell line: MT-4 ; strain or isolate: ROD ; method: RT activity ; result: >33.63 µM
S=c1[nH]c(=S)c2nc(-c3ccccn3)c(-c3ccccn3)nc2[nH]1 ; cell line: MT-4 ; strain or isolate: ROD ; method: cytopathic effect / MTT / absorbance ; result: >93.23 µM
CCCOC(=O)[C@H](Cc1ccccc1)NP(=O)(CO[C@H]1CO[C@@H](n2cnc3c(=O)[nH]cnc32)C1)N[C@@H](Cc1ccccc1)C(=O)OCCC ; cell line: MT-4 ; strain or isolate: ROD ; method: MTT / absorbance ; result: >95.1 µM
COc1ccc2[nH]c(=O)c(CN(Cc3cccnc3)S(=O)(=O)c3cccc4nsnc34)cc2c1 ; cell line: CEM ; strain or isolate: ROD ; method: p24 / ELISA ; result: 0.1365 µM
Cc1cc(S(N)(=O)=O)ccc1NC(=O)COc1ccc(Cl)cc1C(=O)c1cc(Cl)cc(Cl)c1 ; cell line: MT-4 ; method: cytopathic effect / propidium iodide ; result: 1–3 µM
CO[C@]12CS(=O)(=O)O[C@@]13C(CN2)O[C@@H](n1cc(C)c(=O)[nH]c1=O)[C@@H]3O[Si](C)(C)C(C)(C)C ; cell line: CEM ; strain or isolate: ROD ; result: >50 µM
CCCCCCCCCCCCCCC(=O)Oc1ccc(OP(=O)(OCc2ccc(OC(=O)CCCCCC)cc2)OP(=O)(O)OP(=O)(O)OC[C@@H]2C=C[C@H](n3cc(C)c(=O)[nH]c3=O)O2)cc1 ; cell line: CEM ; strain or isolate: ROD ; method: syncytia / visual reading ; result: 0.29 µM
CC(C)=CCOc1cc(NC(=S)c2ccoc2C)ccc1Cl ; cell line: CEM + CEM-SS ; strain or isolate: ROD ; method: p24 ; result: >2 µM
Fc1ccccc1Cn1c(-c2ccccc2F)nc2ccccc21 ; cell line: MT-4 ; strain or isolate: ROD ; method: RT activity ; result: >23.33 µM
Cc1ccnc2c1NC(=O)c1cccnc1N2C1CC1 ; cell line: MT-4 ; strain or isolate: ROD ; method: cytopathic effect / MTT / absorbance ; result: >4 µM
Cc1cn([C@H]2C=C[C@@H](CO)O2)c(=O)[nH]c1=O ; cell line: PBMC ; strain or isolate: D194 ; method: RT activity ; result: 0.18 µM
O=C1[C@@H](Cc2ccccc2)NC(=S)N1Cc1ccccc1 ; cell line: MT-4 ; method: cytopathic effect / XTT ; result: <10 µg/mL
O=c1c2nc(-c3ccccn3)c(-c3ccccn3)nc2nc2scc(-c3ccccc3)n12 ; cell line: MT-4 ; strain or isolate: ROD ; method: cytopathic effect / MTT / absorbance ; result: >2.52 µM
Cc1nc(CCCCCCC(=O)c2ccccc2)n2nc(NCCCCCCN)ccc12 ; cell line: PBMC ; strain or isolate: D194 ; method: RT activity ; result: >10 µM
O=c1[nH]cnc2nc(-c3ccccn3)c(-c3ccccn3)nc12 ; cell line: MT-4 ; strain or isolate: ROD ; method: cytopathic effect / MTT / absorbance ; result: >50.52 µM
Cc1cn([C@@H]2O[C@@H]3CN[C@@]4(OCC(C)C)CS(=O)(=O)O[C@@]34[C@H]2O)c(=O)[nH]c1=O ; cell line: CEM ; strain or isolate: ROD ; result: >250 µM
Cc1cn([C@H]2C[C@@H](OCP(=O)(O)O)CO2)c(=O)nc1N ; cell line: MT-4 ; strain or isolate: ROD ; method: MTT / absorbance ; result: >410 µM
CCCCCCCCCCCC(=O)Oc1ccc(COP(=O)(OCc2ccc(OC(=O)CCCCCCCCCCC)cc2)OP(=O)(O)OC[C@@H]2C=C[C@H](n3cc(C)c(=O)[nH]c3=O)O2)cc1 ; cell line: CEM ; strain or isolate: ROD ; method: syncytia / microscopy ; result: 0.35 µM
Nc1[nH]c(=O)nc2nc(-c3ccccn3)c(-c3ccccn3)nc12 ; cell line: MT-4 ; strain or isolate: ROD ; method: cytopathic effect / MTT / absorbance ; result: >75.34 µM
Cc1cc(S(N)(=O)=O)ccc1NC(=O)COc1ccc(Cl)cc1C(=O)c1cc(F)cc(F)c1 ; cell line: MT-4 ; method: cytopathic effect / propidium iodide ; result: 1–3 µM
O=c1[nH]c(=S)c2nc(-c3ccccn3)c(-c3ccccn3)nc2[nH]1 ; cell line: MT-4 ; strain or isolate: ROD ; method: cytopathic effect / MTT / absorbance ; result: >112 µM
COc1ccc(C(=O)Nc2sc3c(c2C(=O)Nc2ccccn2)CCCCC3)cc1OC ; cell line: MT-4 ; strain or isolate: ROD ; method: MTT / absorbance ; result: >6.24 µM
Cc1cn([C@@H]2O[C@@H]3CN[C@@]4(OCC(C)(C)C)CS(=O)(=O)O[C@@]34[C@H]2O[Si](C)(C)C(C)(C)C)c(=O)[nH]c1=O ; cell line: CEM ; strain or isolate: ROD ; result: <10 µM
O=C1[C@@H](Cc2ccccc2)NC(=S)N1c1ccccc1 ; cell line: MT-4 ; method: RT activity ; result: <100 µg/mL
CC(C)CS[C@@H]1C[C@H](n2cnc3c(N)ncnc32)[C@@H](O)[C@H]1O ; cell line: CEM ; strain or isolate: ROD ; method: cytopathic effect / syncytia / trypan blue ; result: >50 µg/mL

A second listing of 6 rows from above:

smiles | cell line | strain or isolate | method | result
CCCOC(=O)[C@H](Cc1ccccc1)NP(=O)(CO[C@H]1CO[C@@H](n2cnc3c(=O)[nH]cnc32)C1)N[C@@H](Cc1ccccc1)C(=O)OCCC | MT-4 | ROD | MTT / absorbance | >95.1 µM
Fc1ccccc1Cn1c(-c2ccccc2F)nc2ccccc21 | MT-4 | ROD | RT activity | >23.33 µM
O=C(OC1[C@H](OC(=O)c2cc(O)c(O)c(O)c2)CC(OC(=O)c2cc(O)c(O)c(O)c2)(C(=O)O)C[C@H]1OC(=O)c1cc(O)c(O)c(O)c1)c1cc(O)c(O)c(O)c1 | CEM + CEM-SS | ROD | XTT | ~10 µM
Cc1cn([C@@H]2O[C@@H]3CN[C@@]4(OCC(C)(C)C)CS(=O)(=O)O[C@@]34[C@H]2O[Si](C)(C)C(C)(C)C)c(=O)[nH]c1=O | CEM | ROD | - | <10 µM
CO[C@]12CS(=O)(=O)O[C@@]13C(CN2)O[C@@H](n1cc(C)c(=O)[nH]c1=O)[C@@H]3O[Si](C)(C)C(C)(C)C | CEM | ROD | - | >50 µM
Cc1cn([C@H]2C[C@H](N=[N+]=[N-])[C@@H](CO)O2)c(=O)[nH]c1=O | MT-4 | ROD | MTT / absorbance | 0.0082 µM

Blank or dashed fields: not listed here. ECn: concentration that inhibits the pathogen or its effect by n%. Lines come from different laboratories, so protocols vary.